Test results taken from the supplement of paper PMC9931576.
Human monoclonal antibodies against the spike receptor-binding domain (heavy:light variable regions). IC50 against pseudoviruses bearing the spike of naturally observed variants; lower = stronger; >10 µg/ml means not reached at the top dose. No active / inactive call. The stated detection limit is 0.0005 µg/ml; values near or below 0.001 µg/ml lie at the floor of the assay.

B1: BD56-125 (protein)
chain 1: QLQLQESGPGLVKPSETLSLTCTVSGDSVSRTYSYWGWIRQPPGKGLEWIGSISYSGNTYYNPSLKSRFTISLDTSKNHFSLKMRYVTAADTAVYYCARPEWNTVTTGSFDLWGRGTLVAVSS
chain 2: QSVLTQPPSASGTPGQRVTISCSGTDSNIGSNFVSWYQQVPGAAPKLLIYSTSQRPSGVPDRFSGSKSGTSASLAISGLRSEDEADYYCATWDDSLSGYVVFGGGTKLTVL
B2: BD56-139 (protein)
chain 1: QVQLVQSGAEVKKPGASVKVSCKTSGYVFTTHDLSWVRQAPGQGLEWMGWISAKNGNTNYAQKLQGRVTMTTDTSTSTTYMELRGLTSDDTAVYYCARARRESSGYEDDYWFDPWGQGTLVTVSS
chain 2: SSELTQPPSVSVSPGQTARITCSGDTLPNQYVYWYQQKPGQAPVLVIYKDSERPSGIPERFSGSTSGTTVTLAISGVQAEDEADYYCQTADSRGTVFGGGTKLTVL
B3: BD56-134 (protein)
chain 1: QVQLVESGGGVVQPGKSLRLSCAASGFNFDNFAMHWVRQAPGKGLEWVAVISFDASNKYVADSVKGRFTISRDNSKNTLDLQMISLRPEDTAVYYCARDRSMGDVSALTSGCPEYWGQGTLVTVSS
chain 2: DIQMTQSPSSLSASVGDRVTITCQASQDISSYLNWYQQKPGKAPRLLIYDASNLKTGVPSRFSGSGSGTDFTFTISSLQPEDIATYYCQQYDSLPPLTFGGGTKVEIK
B4: BD56-128 (protein)
chain 1: QVQLVESGGGLVKPGGSLKLSCAASGFTFSDHDMSWIRQAPGKGLEWISYINTDGSGIYYTDSVKGRFTISRDNAKNSLHLHMNSLRAEDTAVYYCARDPAFCTGGSCYSRDYFDYWGQGTLVTVSS
chain 2: SYVLTQPSSVSVAPGKTARITCGGDDIGSKSVHWYQQRPGQAPVLVIHSDNDRPSGIPERYTGSNSGNTATLIISRVEAGDEADYYCQLWDGSVGHRVFGGGTKLTVL
B5: BD56-127 (protein)
chain 1: QVRLQQSGPGLVKPSETLSLTCTVYGGPVSSGGYSWSWIRQPPNKGLESIGSIYYSGGTNYNPSLKSRVTISVDMSKNQFSLKLSSVTAADTAVYYCAREVVPPAGNNWFDPWGQGTLVTVSS
chain 2: SYVLTQAPSVSVAPGKTAKITCGGNEIGSKSVHWYQRKPGQAPVLVVYDDSDRPSGIPERFSGSNSGNTATLTISRVEAGDEADYYCQLWDGSSDPHVVFGGGTKVTVL
B6: BD56-129 (protein)
chain 1: QVHLMESGGDLVKPGGSLRLSCAASGFTFSDYYMSWIRQAPGKGLEWVSYISSSGSSIYFADSVKGRFAISRDNAKNSLYLQLNSLRAEDTAVYYCARDRSANYYGDDAFDIWGHGTMVTVSS
chain 2: EIVLTQSPGTLSLSPGERATVSCRASHIISTSNLAWYQQKPGQAPRLLIYDASSRATGIPDRFSGSGSGTDFTLTISRLEPEDFAVYYCQQYGGSPRTFGQGTKVEIK

Assays:
Test in all cases: pseudovirus neutralization IC50; higher = weaker neutralization
[1] = target: SARS-CoV-2 Omicron BA.1 spike pseudovirus
Description: (§1)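 Single-round VSV luciferase pseudovirus mixed with antibody dilutions for 1 h and put on Huh-7 cells for about a day; IC50 from the dose curve.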

[2] = target: SARS-CoV-2 Omicron BA.2 spike pseudovirus
Description: as §1

[3] = target: SARS-CoV-2 Omicron BA.2.75 spike pseudovirus
Description: as §1

[4] = target: SARS-CoV-2 Omicron BA.5 spike pseudovirus
Description: as §1

[5] = target: SARS-CoV-2 Omicron BQ.1.1 spike pseudovirus
Description: as §1

[6] = target: SARS-CoV-2 Omicron XBB spike pseudovirus
Description: as §1

[7] = target: SARS-CoV-2 early D614G spike pseudovirus
Description: as §1

Binder | pseudovirus neutralization IC50 [1] | pseudovirus neutralization IC50 [2] | pseudovirus neutralization IC50 [3] | pseudovirus neutralization IC50 [4] | pseudovirus neutralization IC50 [5] | pseudovirus neutralization IC50 [6] | pseudovirus neutralization IC50 [7]
B1 | > 10 µg/mL | > 10 µg/mL | > 10 µg/mL | > 10 µg/mL | > 10 µg/mL | > 10 µg/mL | > 10 µg/mL
B2 | > 10 µg/mL | > 10 µg/mL | > 10 µg/mL | > 10 µg/mL | > 10 µg/mL | > 10 µg/mL | 5.23 µg/mL
B3 | > 10 µg/mL | > 10 µg/mL | > 10 µg/mL | > 10 µg/mL | > 10 µg/mL | > 10 µg/mL | > 10 µg/mL
B4 | 5.25 µg/mL | 6.23 µg/mL | 7.01 µg/mL | 6.83 µg/mL | > 10 µg/mL | 6.6 µg/mL | 6.28 µg/mL
B5 | 5.53 µg/mL | 4.98 µg/mL | 3.17 µg/mL | 4.25 µg/mL | 8 µg/mL | 7.64 µg/mL | 6.29 µg/mL
B6 | 0.6 µg/mL | 0.473 µg/mL | 0.525 µg/mL | > 10 µg/mL | > 10 µg/mL | 5.15 µg/mL | 0.609 µg/mL
